Compound potency records, mixed from different reports. Data source: NIAID ChemDB in PubChem.

Shared fields: whole-cell or culture tests; agent: HIV-1; cells: MT-4; method: cytopathic effect / MTT; endpoint: fold resistance

Fold resistance has wild type as its base.

{"smiles": "CCOCn1c(Cc2ccccc2)c(C(C)C)c(=O)[nH]c1=O", "changes": "RT-K103N Y181C", "strain or isolate": "NNRTI-resistant (RT K103N Y181C) A17", "value": ">500"}
{"smiles": "CCC(C)[C@@H](C(=O)N[C@@H](Cc1ccccc1)[C@H](O)CN(CC1CCCC1)S(=O)(=O)c1ccc(/C=N/O)cc1)N1CCN(Cc2cccnc2C)C1=O", "changes": "PR-L10F V32I M46I I47V Q68E I84V", "strain or isolate": "A17 (LPV-resistant)", "value": "1"}
{"smiles": "CCc1c(Cc2cc(Cl)cc(Cl)c2)n(COC2Cc3ccccc3C2)c(=O)[nH]c1=O", "changes": "RT-K103N Y181C", "strain or isolate": "NNRTI-resistant (RT K103N Y181C) A17", "value": ">76.9"}
{"smiles": "Cc1cc(C)cc(Nn2c(-c3ccccc3)c(C)[nH]c2=S)c1", "changes": "RT-K103N Y181C", "strain or isolate": "SO561945 (RT K103N Y181C)", "value": "<223"}
{"smiles": "C=Cc1c(Oc2cc(C)cc(C)c2)c(CC)c(C)[nH]c1=O", "changes": "RT-Y188L", "value": "6"}
{"smiles": "Cc1c(O)cccc1C(=O)N[C@@H](Cc1ccccc1)[C@H](O)CN(CC(C)C)S(=O)(=O)c1ccc2nc(N)sc2c1", "changes": "PR-L10F M46I M71V I84V", "strain or isolate": "F", "value": "1380"}
{"smiles": "Cc1cccc(Nn2cnc(C)c2-c2ccccc2)c1", "changes": "RT-K103N Y181C", "strain or isolate": "SO561945 (RT K103N Y181C)", "value": "0.767"}
{"smiles": "CCc1c(Cc2cc(C)cc(C)c2)n(COC/C(C)=C/c2ccccc2)c(=O)[nH]c1=O", "changes": "RT-K103N Y181C", "strain or isolate": "NNRTI-resistant (RT K103N Y181C) A17", "value": "1333"}
{"smiles": "CSCSc1nc(Cc2c(F)cccc2F)c(C)c(=O)[nH]1", "changes": "RT-K103N Y181C", "strain or isolate": "IIIB", "value": ">1000"}
{"smiles": "CCc1c(Cc2cc(C)cc(C)c2)n(COCC2CC=CCC2)c(=O)[nH]c1=O", "changes": "RT-K103N Y181C", "strain or isolate": "NNRTI-resistant (RT K103N Y181C) A17", "value": ">5000"}
{"smiles": "Cc1cc(C)c(Oc2nc(Nc3ccc(C#N)cc3)c(=O)n(C)c2C)c(C)c1", "changes": "RT-K103N", "value": "31.6"}
{"smiles": "CCC(C)[C@@H](C(=O)N[C@@H](Cc1ccccc1)[C@H](O)CN(CC(C)C)S(=O)(=O)c1ccc(/C=N/O)cc1)N1CCN(Cc2cccnc2)C1=O", "changes": "PR-L10F V32I M46I I47V Q68E I84V", "strain or isolate": "A17 (LPV-resistant)", "value": "2"}
{"smiles": "Cc1ccc(Oc2cn(C)c(=O)c(Nc3ccc(F)cc3)n2)c(C)c1", "changes": "RT-Y181C", "value": ">7.95"}
{"smiles": "Cc1cccc(Nn2c(-c3ccccc3)c(C(C)C)[nH]c2=S)c1", "changes": "RT-K103N Y181C", "strain or isolate": "SO561945 (RT K103N Y181C)", "value": "<1"}
{"smiles": "NC(=O)c1[nH]c2ccc(Cl)cc2c1S(=O)(=O)c1ccccc1", "changes": "RT-K103N Y181C", "value": "8000"}
{"smiles": "Cc1cc(C#N)cc(C)c1Oc1nc(Nc2ccc(C#N)cc2)c(=O)n(C)c1C", "changes": "RT-K103N", "value": "1"}
{"smiles": "CCC(C)[C@@H](C(=O)N[C@@H](Cc1ccccc1)[C@H](O)CN(CC1CCCC1)S(=O)(=O)c1ccc(/C=N/O)cc1)N1CCN(Cc2cnccc2C)C1=O", "changes": "PR-L10F V32I M46I I47V Q68E I84V", "strain or isolate": "A17 (LPV-resistant)", "value": "1"}
{"smiles": "Cc1cc(/C=C2\\C(=O)Nc3ccc(S(=O)(=O)N(CC(C)C)C[C@@H](O)[C@H](Cc4ccccc4)NC(=O)O[C@H]4CO[C@H]5OCC[C@H]54)cc32)cc(C)c1O", "changes": "PR-L10F M46I M71V I84V", "strain or isolate": "F", "value": "2"}
{"smiles": "CCc1c(Cc2cc(C)cc(C)c2)n(COC2C=CCCC2)c(=O)[nH]c1=O", "changes": "RT-K103N Y181C", "strain or isolate": "NNRTI-resistant (RT K103N Y181C) A17", "value": ">2500"}
{"smiles": "N#Cc1cc2[nH]c3ccccc3c2n(-c2ccc([N+](=O)[O-])cc2)c1=O", "changes": "RT-L100I K103N", "strain or isolate": "C", "value": "8"}
{"smiles": "Cc1cc(N)cc(C)c1Oc1nc(N)nc(Nc2ccc(C#N)cc2)n1", "changes": "RT-Y181C", "value": "12.8"}
{"smiles": "Cc1cc(C)cc(S(=O)(=O)c2c(C(N)=O)[nH]c3c(Cl)cc(Cl)cc23)c1", "changes": "RT-K103N Y181C", "value": ">62.5"}
{"smiles": "CNc1nc2ccc(S(=O)(=O)N(CC(C)C)C[C@@H](O)[C@H](Cc3ccccc3)NC(=O)COc3c(C)cccc3C)cc2o1", "changes": "PR-L010F M046I M071V I084V", "strain or isolate": "LAI", "value": "7.1"}
{"smiles": "CCC(C)[C@@H](C(=O)N[C@@H](Cc1ccccc1)[C@H](O)CN(CC(C)C)S(=O)(=O)c1ccc(/C=N/O)cc1)N1CCN(Cc2cnccc2C)C1=O", "changes": "PR-L10F V32I M46I I47V Q68E I84V", "strain or isolate": "A17 (LPV-resistant)", "value": "2"}
{"smiles": "CC(C)CN(C[C@@H](O)[C@H](Cc1ccccc1)NC(=O)O[C@H]1CO[C@H]2OCC[C@H]21)S(=O)(=O)c1ccc2c(c1)/C(=C/c1ccc(N(C)C)cc1)C(=O)N2", "changes": "PR-L10F M46I M71V I84V", "strain or isolate": "F", "value": "3.5"}
{"smiles": "CCOCn1c(Cc2cccc(Cc3[nH]c(=O)[nH]c(=O)c3CC)c2)c(CC)c(=O)[nH]c1=O", "changes": "RT-K103N Y181C", "strain or isolate": "RT-K103N+Y181C NNRTI-resistant", "value": ">2.1"}
{"smiles": "CC(C)CN(C[C@@H](O)[C@H](Cc1ccccc1)NC(=O)O[C@H]1CO[C@H]2OCC[C@H]21)S(=O)(=O)c1ccc2nc(N)oc2c1", "changes": "PR-L010F M046I M071V I084V", "strain or isolate": "LAI", "value": "0.51"}
{"smiles": "Cc1cc(C)cc(Nn2cnc(C)c2-c2ccccc2)c1", "changes": "RT-K103N Y181C", "strain or isolate": "SO561945 (RT K103N Y181C)", "value": "<1.86"}
{"smiles": "CCC(C)[C@@H](C(=O)N[C@@H](Cc1ccccc1)[C@H](O)CN(CC(C)C)S(=O)(=O)c1ccc(/C=N/O)cc1)N1CCN(Cc2cccc(C(C)C)n2)C1=O", "changes": "PR-L10F V32I M46I I47V Q68E I84V", "strain or isolate": "A17 (LPV-resistant)", "value": "1.6"}
{"smiles": "CC(C)CN(C[C@@H](O)[C@H](Cc1ccccc1)NC(=O)OC1COC2OCCC12)S(=O)(=O)c1ccc2ncn(Cc3ccccc3)c2c1", "changes": "PR-L10F M46I M71V I84V", "strain or isolate": "R13080", "value": "48"}
{"smiles": "C=C(C)COCn1c(Cc2cc(Cl)cc(Cl)c2)c(CC)c(=O)[nH]c1=O", "changes": "RT-K103N Y181C", "strain or isolate": "NNRTI-resistant (RT K103N Y181C) A17", "value": ">83"}
{"smiles": "Cn1c2ccccc2c2c1cc(C#N)c(=O)n2-c1ccc([N+](=O)[O-])cc1", "changes": "RT-I31L L100I K103N E138G Y181C L214F", "strain or isolate": "J", "value": "5"}
{"smiles": "CCc1c(C)[nH]c(=O)c(OC)c1Oc1cc(C)cc(C)c1", "changes": "RT-L100I", "value": "13"}
{"smiles": "CC(C)CN(C[C@@H](O)[C@H](Cc1ccccc1)NC(=O)[C@H](C(C)C)N1CC(=O)N(Cc2ccccc2)C1=O)S(=O)(=O)c1ccc(/C=N/O)cc1", "changes": "PR-L10F V32I M46I I47V Q68E I84V", "strain or isolate": "A17 (LPV-resistant)", "value": "16"}
{"smiles": "C=CCOCn1c(Cc2cccc(Cc3[nH]c(=O)[nH]c(=O)c3CC)c2)c(CC)c(=O)[nH]c1=O", "changes": "RT-Y181C", "strain or isolate": "NNRTI-resistant", "value": ">9.1"}
{"smiles": "CCn1c(C)c(C(=O)OC)c(C(=O)OC)c1Cc1ccccc1", "changes": "RT-K103N Y181C", "strain or isolate": "A17", "value": ">3.1"}
{"smiles": "CCc1c(Cc2cc(Cl)cc(Cl)c2)n(COC/C=C/c2ccccc2)c(=O)[nH]c1=O", "changes": "RT-Y181C", "strain or isolate": "NNRTI-resistant (RT Y181C) N119", "value": "75"}
{"smiles": "CCc1c(C)[nH]c(=O)c(C2CC2)c1Oc1cc(C)cc(C)c1", "changes": "RT-Y188L", "value": "25"}
{"smiles": "Cc1ccccc1S(=O)(=O)c1c(C(N)=O)[nH]c2ccc(Cl)cc12", "changes": "RT-Y181C", "strain or isolate": "N119 nevirapine-resistant (RT Y181C)", "value": "160"}
{"smiles": "CSCSc1nc(C(C)c2c(F)cccc2F)cc(=O)[nH]1", "changes": "RT-K103N Y181C", "strain or isolate": "IIIB", "value": ">125"}
{"smiles": "C=CCOCn1c(CC2CCCc3ccccc32)c(CC)c(=O)[nH]c1=O", "changes": "RT-Y181C", "strain or isolate": "N119 RT-Y181C NNRTI-resistant", "value": ">25"}
{"smiles": "CCOCn1c(Cc2ccccc2)c(C(C)C)c(=O)[nH]c1=O", "changes": "RT-K103N Y181C", "strain or isolate": "RT-K103N+Y181C NNRTI-resistant", "value": ">3330"}
{"smiles": "Cc1c(C(=O)N[C@@H](Cc2ccccc2)[C@H](O)CN(CC(C)C)S(=O)(=O)c2ccc3nc(N)oc3c2)ccc([N+](=O)[O-])c1O", "changes": "PR-L010F M046I M071V I084V", "strain or isolate": "LAI", "value": "6.6"}
{"smiles": "Clc1cccc(Nn2cnc3c2CCCC3)c1", "changes": "RT-K103N Y181C", "strain or isolate": "SO561945 (RT K103N Y181C)", "value": "<1"}
{"smiles": "CCc1c(Cc2cc(Cl)cc(Cl)c2)n(COCC=C(C)C)c(=O)[nH]c1=O", "changes": "RT-K103N Y181C", "strain or isolate": "NNRTI-resistant (RT K103N Y181C) A17", "value": ">200"}
{"smiles": "CCCc1c(Cc2cc(C)cc(C)c2)n(COCC2CC=CCC2)c(=O)[nH]c1=O", "changes": "RT-K103N Y181C", "strain or isolate": "NNRTI-resistant (RT K103N Y181C) A17", "value": ">1250"}
{"smiles": "COc1ccc(S(=O)(=O)N(CC(C)C)C[C@@H](O)[C@H](Cc2ccccc2)NC(=O)[C@H](C(C)C)N2CC(=O)N(Cc3csc(C)n3)C2=O)cc1", "changes": "PR-L10F V32I M46I I47V Q68E I84V", "strain or isolate": "A17 (LPV-resistant)", "value": "15"}
{"smiles": "CCCc1c(Cc2cc(C)cc(C)c2)n(COC2C=CCCC2)c(=O)[nH]c1=O", "changes": "RT-K103N Y181C", "strain or isolate": "NNRTI-resistant (RT K103N Y181C) A17", "value": ">3333"}
{"smiles": "Cc1cncc(C)c1OCC(=O)N[C@@H](Cc1ccccc1)[C@H](O)CN(CC(C)C)S(=O)(=O)c1ccc2nc(N)oc2c1", "changes": "PR-L010F M046I M071V I084V", "strain or isolate": "LAI", "value": "13"}

A second listing of 4 rows from above:

smiles	changes	strain or isolate	value
C=Cc1c(Oc2cc(C)cc(C)c2)c(CC)c(C)[nH]c1=O	RT-Y188L	-	6
CCOCn1c(Cc2ccccc2)c(C(C)C)c(=O)[nH]c1=O	RT-K103N Y181C	NNRTI-resistant (RT K103N Y181C) A17	>500
CSCSc1nc(Cc2c(F)cccc2F)c(C)c(=O)[nH]1	RT-K103N Y181C	IIIB	>1000
CCc1c(Cc2cc(Cl)cc(Cl)c2)n(COCC=C(C)C)c(=O)[nH]c1=O	RT-K103N Y181C	NNRTI-resistant (RT K103N Y181C) A17	>200

An empty or dashed field is not shown. Rows are shuffled and stem from different studies.